{"source": "PubChem BioAssay AID1259414, Drosophila RNAi Screening Center | 2018", "aim": "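Genome-wide screen for host control of endosymbiont load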 (primary screen)", "cells": "Drosophila JW18 cells infected with Wolbachia", "reagent": "long dsRNA against Drosophila genes, 0.25 µg dsRNA per well of a 384-well plate", "time to read-out": "5 days", "conditions": "cells persistently infected with Wolbachia before knock-down; no added drug", "measured": "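Automated imaging of bacterial rRNA staining divided by host cell count, reported as plate-normalised robust z-score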", "reading the numbers": "Wolbachia per cell robust z: higher = more Wolbachia per host cell than the plate typical", "hit rule": "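Hit when robust z is 1.5 or more, or -1.5 or less, in at least two of three replicates; excludes dsRNAs with several or no targets, genes not expressed in JW18 and well A1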", "note": "The deposit covers about 24,000 reagents; below is a random part of those with a known target gene and a result. Of all reagents, about 1,210 (5%) are marked active. 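Inactive calls also include excluded dsRNAs with several or no targets, genes unexpressed in JW18, and well A1, regardless of score.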 Entries without a mark were called inactive. The numbers tell different reagents against one gene apart. Names joined by + are all predicted targets of the reagent."}
{"target": "CG8206", "reagent no.": 1, "Wolbachia per cell robust z, rep 1": -2.53, "Wolbachia per cell robust z, rep 2": -1.47, "Wolbachia per cell robust z, rep 3": -0.121}
{"target": "Or82a (Odorant receptor 82a)", "reagent no.": 1, "Wolbachia per cell robust z, rep 1": -1.09, "Wolbachia per cell robust z, rep 2": -0.193, "Wolbachia per cell robust z, rep 3": 0.0343}
{"target": "lncRNA:CR33942 (long non-coding RNA:CR33942)", "reagent no.": 1, "Wolbachia per cell robust z, rep 1": 0.811, "Wolbachia per cell robust z, rep 2": 0.114, "Wolbachia per cell robust z, rep 3": -0.117}
{"target": "lncRNA:CR33942 (long non-coding RNA:CR33942)", "reagent no.": 2, "Wolbachia per cell robust z, rep 1": -0.662, "Wolbachia per cell robust z, rep 2": -0.297, "Wolbachia per cell robust z, rep 3": 1.69}
{"target": "p47", "reagent no.": 1, "Wolbachia per cell robust z, rep 1": 1.53, "Wolbachia per cell robust z, rep 2": -3.2, "Wolbachia per cell robust z, rep 3": 0.758}
{"target": "acs (arcus)", "reagent no.": 1, "Wolbachia per cell robust z, rep 1": -0.284, "Wolbachia per cell robust z, rep 2": -2.35, "Wolbachia per cell robust z, rep 3": -2.77}
{"target": "acs (arcus)", "reagent no.": 2, "Wolbachia per cell robust z, rep 1": -0.0882, "Wolbachia per cell robust z, rep 2": 0.492, "Wolbachia per cell robust z, rep 3": 0.547}
{"target": "CG10182", "reagent no.": 1, "Wolbachia per cell robust z, rep 1": 0.45, "Wolbachia per cell robust z, rep 2": -0.79, "Wolbachia per cell robust z, rep 3": 0.668}
{"target": "CG10182", "reagent no.": 2, "Wolbachia per cell robust z, rep 1": 0.204, "Wolbachia per cell robust z, rep 2": -0.813, "Wolbachia per cell robust z, rep 3": -0.448}
{"target": "CG10182", "reagent no.": 3, "Wolbachia per cell robust z, rep 1": 0.0132, "Wolbachia per cell robust z, rep 2": 0.55, "Wolbachia per cell robust z, rep 3": 0.402}
{"target": "CG7910", "reagent no.": 1, "Wolbachia per cell robust z, rep 1": -0.797, "Wolbachia per cell robust z, rep 2": 0.297, "Wolbachia per cell robust z, rep 3": -4.02}
{"target": "Shawn + Tyler", "reagent no.": 1, "Wolbachia per cell robust z, rep 1": 0.426, "Wolbachia per cell robust z, rep 2": 0.469, "Wolbachia per cell robust z, rep 3": 0.572}

As entered above:
Entry of p47 under “Wolbachia per cell robust z, rep 3”: 0.758
Result of lncRNA:CR33942 (long non-coding RNA:CR33942) #2 under “Wolbachia per cell robust z, rep 3”: 1.69
